Source: article PMC6006364, “D-Cateslytin: a new antifungal agent for the treatment of oral Candida albicans associated infections” (Scientific Reports, 2018)

Tested on: Candida albicans
Experiment: Time-lapse video microscopy of Candida albicans with rhodamine-labelled peptides
Assay type: cell-based
Details: 10 × MIC (55 μg/mL Rho-D-Ctl, 79 μg/mL Rho-L-Ctl), 30 min loading then wash; 34/34 L-Ctl and 23/23 D-Ctl treated colonies
Experimental: Diluted precultures (1/1000) of Candida albicans were incubated for 1 hour at 37 °C without agitation in glass bottom μ-Dish^35mm,high (Ibidi) previously treated with poly-L-lysine. […] To perform time-lapse video microscopy, the peptides were removed and replaced by Sabouraud medium. Yeasts were then plated at 37 °C, 5% CO2, on a Nikon Eclipse Ti inverted microscope equipped with an Andor Zyla sCMOS camera and a 60X objective. To prevent evaporation, a layer of mineral oil (Sigma) was added on top of the media prior imaging. Images (fluorescence and phase contrast) were captured every 10 min for 20 hours using Nikon NIS-Elements AR software, and processed with ImageJ.

Row | Substance | intensity of fluorescence in C. albicans over a period of 17 hours
1 | Rho-D-Ctl: D-Ctl with a rhodamine moiety on the N-terminal end, used for video microscopy (RSMRLSFRARGYGFR; D-amino acids; N-terminal rhodamine) | stays stable
2 | Rho-L-Ctl: L-Ctl with a rhodamine moiety on the N-terminal end, used for video microscopy (RSMRLSFRARGYGFR; N-terminal rhodamine) | decreases
